Measured values from several laboratories, pooled; numbers as filed in NIAID ChemDB.

All rows: tests in culture

ECn: concentration that inhibits the pathogen or its effect by n%. Inhibition is in % at the dose shown (toxicity tests: loss of growth or viability). Conditions beyond the fields shown may differ between rows. An empty or dashed field is not shown.

structure | organism | strain | cells | read-out | tested at | value
CC(C)O[C@@H]1[C@H](OC(C)C)[C@@H](COS(=O)(=O)NC(=O)O[C@H]2O[C@H](COCc3ccccc3)[C@@H](OCc3ccccc3)[C@H](OCc3ccccc3)[C@H]2OCc2ccccc2)O[C@H]1n1ccc(=O)[nH]c1=O | African swine fever virus |  | VERO | EC50 |  | 40 µg/mL
Nc1nccc2c1ncn2[C@@H]1O[C@H](CO)[C@@H](O)[C@H]1O | Newcastle disease virus |  | Chick embryo cells | inhibition | 100 µM | 33.6%
Nc1ccn(C[C@@H](CO)OCP(=O)(O)O)c(=O)n1 | Variola virus | Isolate MINN124 | VERO | EC50 |  | 5 µg/mL
CC(C)=CCC[C@@H](COS(=O)(=O)O)C1CCC2C3CC[C@H]4C[C@H](OS(=O)(=O)O)[C@@H](O)CC4(C)C3CCC21C | Junin virus | IV4454 | VERO | inhibition | 80 µg/mL | 64%
Nc1ccn(C[C@H]2COP(=O)(O)CO2)c(=O)n1 | Variola virus | Isolate Yamada | VERO | EC50 |  | 31 µg/mL
CC(C)CCCC(COS(=O)(=O)O)C1CCC2C3CC=C4C[C@H](O)[C@@H](OS(=O)(=O)O)CC4(C)C3CCC12C | Junin virus | IV4454 | VERO | inhibition | 80 µg/mL | 8.7%
Nc1ccn([C@@H]2C=C(CO)[C@@H](O)[C@H]2O)c(=O)n1 | Monkeypox virus | ZAIRE |  | EC50 |  | 0.1 µg/mL
O=[N+]([O-])c1ccc2[nH]c(O)c(N=NC(=S)Nc3ccc(Cl)cc3)c2c1 | Yellow fever virus |  | VERO | EC50 |  | <0.8 µg/mL
N=c1ncn(CC2CCCCC2)c2nc[nH]c12 | Vaccinia virus |  | BSC-1 | inhibition | 50 µg/mL | 7%
Cc1ccc(NC(=S)N=Nc2c(O)[nH]c3ccc([N+](=O)[O-])cc23)cc1 | Yellow fever virus |  | VERO | EC50 |  | 1.96 µg/mL
CCC1COC(c2ccc(OCCCCCCC(=O)c3ccc(C)s3)cc2)=N1 | Poliovirus | TYPE 2 | VERO | EC50 |  | >26.05 µM
Clc1ccc2c(c1)CC(c1ccccc1)CO2 | Poliovirus | IB (TYPE 2) | HEP-2 | EC50 |  | >10 µM
Cc1ccc(C(=O)CCCCOc2ccc(C3=NC(C)(C)CO3)cc2)s1 | Poliovirus | TYPE 1 | VERO | EC50 |  | >26.95 µM
CC(C)OC1[C@H](n2ccc(=O)[nH]c2=O)O[C@H](COS(=O)(=O)NC(=O)NC[C@H]2O[C@H](COCc3ccccc3)[C@@H](OCc3ccccc3)[C@H](OCc3ccccc3)[C@H]2OCc2ccccc2)[C@H]1OC(C)C | African swine fever virus |  | VERO | EC50 |  | 10 µg/mL
Nc1nccc2c1ncn2[C@@H]1C[C@H](CO)[C@@H](O)[C@H]1O | Variola virus | Isolate Brazil Garcia | VERO | EC50 |  | 1.6 µg/mL
N=c1ncn(Cc2ccc(Cl)cc2Cl)c2nc[nH]c12 | Vaccinia virus |  | BSC-1 | inhibition | 6 µg/mL | 0%
CC(C)O[C@@H]1[C@H](OC(C)C)[C@@H](COCCCC2O[C@H](COC(=O)c3ccccc3)[C@@H](OC(=O)c3ccccc3)[C@H](OC(=O)c3ccccc3)[C@H]2OC(=O)c2ccccc2)O[C@H]1n1ccc(=O)[nH]c1=O | African swine fever virus |  | VERO | EC50 |  | 25 µg/mL
CC1S/C(=N/N=C2\C(=O)Nc3ccc([N+](=O)[O-])cc32)N(c2ccc(F)cc2)C1=O | Yellow fever virus |  | VERO | EC50 |  | >4 µg/mL
CCn1cnc(=N)c2[nH]cnc21 | Vaccinia virus |  | BSC-1 | inhibition | 6 µg/mL | 0%
C1=C(c2ccccc2)COc2ccccc21 | Poliovirus | IA (TYPE 2) | HEP-2 | EC50 |  | <10 µM
Cn1c(O)c(N=NC(N)=S)c2ccccc21 | Monkeypox virus |  | VERO | EC50 |  | 66.2 µg/mL
C=CCN1C(=O)C(C)S/C1=N/N=C1\C(=O)Nc2ccc([N+](=O)[O-])cc21 | Yellow fever virus |  | VERO | EC50 |  | >20 µg/mL
CCCCn1cnc(=N)c2[nH]cnc21 | Vaccinia virus |  | BSC-1 | inhibition | 50 µg/mL | 0%
Nc1ncnc2c1ncn2[C@@H]1C[C@H](NC=O)[C@@H](O)[C@H]1O | Venezuelan equine encephalitis virus |  | HFF | EC50 |  | >100 µg/mL
O=C(NS(=O)(=O)OCCOCn1ccc(=O)[nH]c1=O)O[C@H]1O[C@H](COCc2ccccc2)[C@@H](OCc2ccccc2)[C@H](OCc2ccccc2)[C@H]1OCc1ccccc1 | African swine fever virus |  | VERO | EC50 |  | 25 µg/mL
Cc1ccccc1Cn1cnc(=N)c2[nH]cnc21 | Vaccinia virus |  | BSC-1 | inhibition | 12 µg/mL | 0%
Cc1ccc(C(=O)CCCCCCOc2ccc(C3=NCCO3)cc2)s1 | Poliovirus | TYPE 1 | VERO | EC50 |  | >26.95 µM
CC(C)=CCCC(COS(=O)(=O)O)C1CCC2C3CC=C4C[C@H](O)[C@@H](OS(=O)(=O)O)CC4(C)C3CCC12C | Junin virus | IV4454 | VERO | inhibition | 40 µg/mL | 35%
O=C(NS(=O)(=O)OC[C@H]1O[C@@H](n2ccc(=O)[nH]c2=O)[C@H](O)[C@@H]1O)O[C@H]1O[C@H](COC(=O)c2ccccc2)[C@@H](OC(=O)c2ccccc2)[C@H](OC(=O)c2ccccc2)[C@@H]1OC(=O)c1ccccc1 | African swine fever virus |  | VERO | EC50 |  | 25 µg/mL
Clc1ccc2c(c1)C=C(c1ccc(Br)cc1)CO2 | Poliovirus | SABIN (TYPE 2) | HEP-2 | EC50 |  | >10 µM
CC(C)O[C@@H]1[C@H](OC(C)C)[C@@H](COS(=O)(=O)NC(=O)O[C@H]2O[C@H](COC(=O)c3ccccc3)[C@@H](OC(=O)c3ccccc3)[C@H](OC(=O)c3ccccc3)[C@H]2OC(=O)c2ccccc2)O[C@H]1n1ccc(=O)[nH]c1=O | African swine fever virus |  | VERO | EC50 |  | 0.1 µg/mL
Nc1nc(=O)n([C@@H]2C=C(CO)[C@@H](O)[C@H]2O)cc1I | Variola virus | Bangladesh 1975 |  | EC50 |  | 10.4 µg/mL
CC(C)=CCCC(CO)C1CCC2C3CC=C4C[C@H](O)[C@@H](O)CC4(C)C3CCC12C | Junin virus | IV4454 | VERO | inhibition | 40 µg/mL | 0%
CCCCCCCCCCCCCCCC(=O)OC[C@H]1O[C@H](OC(=O)NS(=O)(=O)OC[C@H]2O[C@@H](n3ccc(=O)[nH]c3=O)[C@H](OC(C)C)[C@@H]2OC(C)C)[C@H](OC(=O)CCCCCCCCCCCCCCC)[C@@H](OC(=O)CCCCCCCCCCCCCCC)[C@@H]1OC(=O)CCCCCCCCCCCCCCC | African swine fever virus |  | VERO | EC50 |  | 25 µg/mL
O=C1Nc2ccc([N+](=O)[O-])cc2/C1=N/N=C1/SCC(=O)N1c1ccc(F)cc1 | Yellow fever virus |  | VERO | EC50 |  | >20 µg/mL
Clc1ccc(C2CCc3ccccc3O2)c(Cl)c1 | Poliovirus | II (TYPE 2) | HEP-2 | EC50 |  | >10 µM
Cc1cc(CCCCCCCOc2ccc(C3=NCCO3)cc2)on1 | Poliovirus | TYPE 3 | VERO | EC50 |  | 0.26 µM

Repeating the first 2 entries:

{"structure": "CC(C)O[C@@H]1[C@H](OC(C)C)[C@@H](COS(=O)(=O)NC(=O)O[C@H]2O[C@H](COCc3ccccc3)[C@@H](OCc3ccccc3)[C@H](OCc3ccccc3)[C@H]2OCc2ccccc2)O[C@H]1n1ccc(=O)[nH]c1=O", "organism": "African swine fever virus", "cells": "VERO", "read-out": "EC50", "value": "40 µg/mL"}
{"structure": "Nc1nccc2c1ncn2[C@@H]1O[C@H](CO)[C@@H](O)[C@H]1O", "organism": "Newcastle disease virus", "cells": "Chick embryo cells", "read-out": "inhibition", "tested at": "100 µM", "value": "33.6%"}